Measured values from several laboratories, pooled; numbers as filed in NIAID ChemDB.

Shared fields: growth or infection tests; agent: HIV-1; method: cytopathic effect / MTT; measure: EC50

An empty or dashed field is not shown. Rows are shuffled and stem from different studies. ECn: concentration that inhibits the pathogen or its effect by n%. Two numbers with a dash give a range or band.

smiles,strain or isolate,changes,cells,result
Fc1cccc(F)c1CCNC(=S)Nc1ccc(Br)c(Br)n1,IIIB,,MT-4,0.0028 µg/mL
CNc1nc(-c2ccc(S(=O)(=O)N(CC(C)C)C[C@@H](O)[C@H](Cc3ccccc3)NC(=O)O[C@H]3CO[C@H]4OCC[C@H]43)cc2)cs1,,PR-L010F M046I M071V I084V,MT-4,0.126 µM
CC(C)CN(C[C@@H](O)[C@H](Cc1ccccc1)NC(=O)OCc1cncs1)S(=O)(=O)c1ccc2nc[nH]c2c1,LAI WT,,MT-4,0.05 µM
O=C(/C=C/c1ccc(Cl)c(Cl)c1)/C=C/c1ccc(Cl)c(Cl)c1,,,MT-4,>200 µM
O=C(O[C@@H]1[C@@H](c2c(O)cc(O)c3c2O[C@H](c2ccc(O)c(O)c2)[C@H](OC(=O)c2cc(O)c(O)c(O)c2)C3)c2c(O)cc(O)cc2O[C@@H]1c1ccc(O)c(O)c1)c1cc(O)c(O)c(O)c1,IIIB,,MT-4,>50 µg/mL
Cc1cccc(S(=O)(=O)c2c(C(=O)NCCO)[nH]c3ccc(Cl)cc23)c1,,RT-Y181C,MT-4,0.1 µM
Cc1cccc(C)c1OCC(=O)N[C@@H](Cc1ccccc1)[C@H](O)CN(CC(C)C)S(=O)(=O)c1ccc2ncn(CC(C)C)c2c1,LAI WT,,MT-4,0.501 µM
Cc1cc(C)cc(S(=O)(=O)c2c(C(=O)NCCO)[nH]c3ccc(Cl)cc23)c1,,RT-Y181C,MT-4,0.2 µM
CC(C)CN(C[C@@H](O)[C@H](Cc1ccccc1)NC(=O)O[C@H]1CO[C@H]2OCC[C@H]21)S(=O)(=O)c1ccc2c(c1)ncn2CCN(C)C,LAI WT,,MT-4,0.316 µM
Cc1cccc(Sc2c(C(=O)NCCO)[nH]c3ccc(Cl)cc23)c1,IIIB,,C8166,0.08 µM
Cc1ccccc1C(=O)N[C@@H](Cc1ccccc1)[C@H](O)CN(CC(C)C)S(=O)(=O)c1ccc2nc(N)sc2c1,LAI,,MT-4,0.004 µM
COC(=O)Nc1nc2ccc(S(=O)(=O)N(CC(C)C)C[C@@H](O)[C@H](Cc3ccccc3)NC(=O)c3ccc(N)cc3C)cc2[nH]1,LAI WT,,MT-4,0.04 µM
O=C1O[C@@H]2O[C@@H]3COC(=O)c4cc(O)c(O)c(O)c4-c4c(cc(O)c(O)c4O)C(=O)O[C@H]3[C@H](OC(=O)c3cc(O)c(O)c(O)c3)[C@H]2OC(=O)c2cc(Oc3c(C(=O)O[C@H]4[C@H](OC(=O)c5cc(O)c(O)c(O)c5)O[C@H](CO)[C@@H](O)[C@@H]4OC(=O)c4cc(O)c(O)c(O)c4)cc(O)c(O)c3O)c(O)c(O)c2Oc2cc1cc(O)c2O,IIIB,,MT-4,>100 µg/mL
Cc1c(O)cccc1C(=O)N[C@@H](Cc1ccccc1)[C@H](O)CN(CC(C)C)S(=O)(=O)c1ccc2nc(N)sc2c1,LAI,,MT-4,0.014 µM
Cc1cc(C)cc(S(=O)(=O)c2c(C(=O)NCC(N)=O)[nH]c3ccc(Cl)cc23)c1,,RT-K103R,C8166,<0.1 µM
Cc1nc(C2=CC3Nc4ccccc4C3N(c3ccc(-c4noc(C)n4)cc3)C2=O)no1,LAI,,MT-4,>32 µM
Cc1ccc(Sc2c(C(=O)NCCO)[nH]c3ccc(Cl)cc23)cc1,IIIB,,C8166,0.04 µM
COC(=O)Nc1nc2ccc(S(=O)(=O)N(CC(C)C)C[C@@H](O)[C@H](Cc3ccccc3)NC(=O)COc3c(C)cc(C#N)cc3C)cc2[nH]1,LAI WT,,MT-4,0.016 µM
CNc1nc2ccc(S(=O)(=O)N(CC(C)C)C[C@@H](O)[C@H](Cc3ccccc3)NC(=O)O[C@H]3CO[C@H]4OCC[C@H]43)cc2s1,F,PR-L10F M46I M71V I84V,MT-4,0.0019 µM
O=C(O[C@@H]1[C@H](c2c(O)cc(O)c3c2O[C@H](c2ccc(O)c(O)c2)[C@H](OC(=O)c2cc(O)c(O)c(O)c2)C3)c2c(O)cc(O)c([C@H]3c4c(O)cc(O)cc4O[C@H](c4ccc(O)c(O)c4)[C@@H]3OC(=O)c3cc(O)c(O)c(O)c3)c2O[C@@H]1c1ccc(O)c(O)c1)c1cc(O)c(O)c(O)c1,IIIB,,MT-4,>100 µg/mL
CCN1C/C(=C\c2cc(O)c(O)c(O)c2)C(=O)/C(=C/c2cc(O)c(O)c(O)c2)C1,,,MT-4,≥40 µM
Cc1cc(C)cc(Sc2c(C(=O)NCCO)[nH]c3ccc(Cl)cc23)c1,IIIB,,C8166,0.015 µM
Fc1cccc(F)c1CCNC(=S)Nc1ccccn1,IIIB,,MT-4,0.03 µg/mL
Cc1cccc(C)c1OCC(=O)N[C@@H](Cc1ccccc1)[C@H](O)CN(CC(C)C)S(=O)(=O)c1ccc2nc[nH]c2c1,LAI WT,,MT-4,0.079 µM
CN1CCN(CCCN2c3ccccc3C3C2C=C(C#N)C(=O)N3c2ccc([N+](=O)[O-])cc2)CC1,LAI,,MT-4,<1 µM
Cc1cccc(NC(=S)NCCc2c(F)cccc2F)n1,IIIB,,MT-4,0.033 µg/mL
CC(C)CN(C[C@@H](O)[C@H](Cc1ccccc1)NC(=O)O[C@H]1CCOC1)S(=O)(=O)c1ccc2nc(N)sc2c1,LAI,,MT-4,0.003 µM
O=C(O)C[C@H]1C(=O)O[C@H]2[C@H](OC(=O)c3cc(O)c(O)c(O)c3)[C@@H](OC(=O)c3cc(O)c(O)c4c3[C@H]1[C@H](O)C(=O)O4)[C@H](OC(=O)c1cc(O)c(O)c(O)c1)O[C@@H]2COC(=O)c1cc(O)c(O)c(O)c1,IIIB,,MT-4,>25 µg/mL
O=C1C=CC2Nc3ccccc3C2N1c1ccc([N+](=O)[O-])cc1,LAI,,MT-4,1–32 µM
O=CC(OC(=O)c1cc(O)c(O)c(O)c1Oc1cc(C(=O)O)cc(O)c1O)C(OC(=O)c1cc(O)c(O)c(O)c1)C1OC(=O)c2cc(O)c(O)c(O)c2-c2c(cc(O)c(O)c2O)C(=O)OCC1O,IIIB,,MT-4,>50 µg/mL
O=c1[nH]c(=S)c2c(n1COCc1ccccc1)CCC2,BRU,,CEM-C113 + CEM/C113,>30 µg/mL
OC(/C=C/c1ccc(Cl)c(Cl)c1)/C=C/c1ccc(Cl)c(Cl)c1,,,MT-4,>121 µM
CCC(C)Sc1nc(Cc2cc(C)cc(C)c2)cc(=O)[nH]1,IIIB,,MT-4,0.6 µM
CCNc1nc(-c2ccc(S(=O)(=O)N(CC(C)C)C[C@@H](O)[C@H](Cc3ccccc3)NC(=O)COc3c(C)cc(Br)cc3C)cc2)cs1,LAI,,MT-4,25.1 µM
CCOC(=O)CC1C/C(=C\c2cc(O)c(O)c(O)c2)C(=O)/C(=C/c2cc(O)c(O)c(O)c2)C1,,,MT-4,30 µM
CC(C)CN(C[C@@H](O)[C@H](Cc1ccccc1)NC(=O)O[C@H]1CO[C@H]2OCC[C@H]21)S(=O)(=O)c1ccc(-c2coc(COCc3ccccc3)n2)cc1,LAI,,MT-4,0.004 µM
O=c1[nH]c(=O)n(COCCO)c2c1CCCC2,BRU,,CEM-C113 + CEM/C113,>30 µg/mL
CNc1nc2ccc(S(=O)(=O)N(CC(C)C)C[C@@H](O)[C@H](Cc3ccccc3)NC(=O)O[C@H]3CCOC3)cc2s1,LAI,,MT-4,0.001 µM
Cc1ccccc1S(=O)(=O)c1c(C(=O)NCCO)[nH]c2ccc(Cl)cc12,,RT-K103N Y181C,MT-4,12 µM
Cc1cc(C)cc(S(=O)(=O)c2c(C(N)=O)[nH]c3c(Cl)cc(Cl)cc23)c1,IIIB,,MT-4,1.6 µM
O=C(NNCCO)c1[nH]c2ccc(Cl)cc2c1Sc1ccccc1,IIIB,,C8166,0.3 µM
Cc1cccc(C)c1OCC(=O)N[C@@H](Cc1ccccc1)[C@H](O)CN(CC(C)C)S(=O)(=O)c1ccc(-c2csc(N)n2)cc1,LAI,,MT-4,1.259 µM
Fc1cccc(F)c1CCNC(=S)Nc1ncccn1,IIIB,,MT-4,0.32 µg/mL
CSc1nc(=O)n(COCCO)c2c1CCCC2,BRU,,CEM-C113 + CEM/C113,>30 µg/mL
OC1/C(=C/c2ccc(Cl)c(Cl)c2)CCC/C1=C\c1ccc(Cl)c(Cl)c1,,,MT-4,>102 µM
O=c1[nH]c(=S)c2c(n1COCc1ccccc1)CCCC2,BRU,,CEM-C113 + CEM/C113,>30 µg/mL
O=C(NNCCO)c1[nH]c2ccc(Cl)cc2c1S(=O)(=O)c1ccccc1,IIIB,,MT-4,0.01 µM
CC(C)CN(C[C@@H](O)[C@H](Cc1ccccc1)NC(=O)O[C@H]1CO[C@H]2OCC[C@H]21)S(=O)(=O)c1ccc(-c2cnc(N)[nH]2)cc1,LAI,,MT-4,0.631 µM
O=C1/C(=C/c2ccc(Cl)c(Cl)c2)CSC/C1=C\c1ccc(Cl)c(Cl)c1,,,MT-4,>31 µM
O=c1[nH]c(=O)n(COCCO)c2c1CCC2,BRU,,CEM-C113 + CEM/C113,>30 µg/mL
Cc1cc(C)cc(S(=O)(=O)c2c(C(=O)/C=C/C(N)=O)[nH]c3ccc(Cl)cc23)c1,,RT-K103N Y181C,MT-4,>100 µM
CC(C)CN(C[C@@H](O)[C@H](Cc1ccccc1)NC(=O)OC1COC2OCCC12)S(=O)(=O)c1ccc2nc(N)[nH]c2c1,LAI WT,,MT-4,5.012 µM
Fc1cccc(F)c1CCNC(=S)Nc1ccc(Cl)cn1,IIIB,,MT-4,0.0006 µg/mL
O=c1[nH]c(=S)c2c(n1COCCO)CCCC2,BRU,,CEM-C113 + CEM/C113,>30 µg/mL
O=C1/C(=C/c2cc(O)c(O)c(O)c2)CC(C(=O)O)C/C1=C\c1cc(O)c(O)c(O)c1,,,MT-4,4 µM
[N-]=[N+]=NCCOCn1c2c(c(=O)[nH]c1=O)CCC2,BRU,,CEM-C113 + CEM/C113,>30 µg/mL
Cc1nc(C2=CC3C(c4ccccc4N3C)N(c3ccc([N+](=O)[O-])cc3)C2=O)no1,LAI,,MT-4,1–32 µM
CC(C)CN(C[C@@H](O)[C@H](Cc1ccccc1)NC(=O)O[C@H]1CCOC1)S(=O)(=O)c1ccc2nc(N)[nH]c2c1,LAI WT,,MT-4,1 µM

Repeating the final 6 entries:

smiles	strain or isolate	changes	cells	result
Fc1cccc(F)c1CCNC(=S)Nc1ccc(Cl)cn1	IIIB		MT-4	0.0006 µg/mL
O=c1[nH]c(=S)c2c(n1COCCO)CCCC2	BRU		CEM-C113 + CEM/C113	>30 µg/mL
O=C1/C(=C/c2cc(O)c(O)c(O)c2)CC(C(=O)O)C/C1=C\c1cc(O)c(O)c(O)c1			MT-4	4 µM
[N-]=[N+]=NCCOCn1c2c(c(=O)[nH]c1=O)CCC2	BRU		CEM-C113 + CEM/C113	>30 µg/mL
Cc1nc(C2=CC3C(c4ccccc4N3C)N(c3ccc([N+](=O)[O-])cc3)C2=O)no1	LAI		MT-4	1–32 µM
CC(C)CN(C[C@@H](O)[C@H](Cc1ccccc1)NC(=O)O[C@H]1CCOC1)S(=O)(=O)c1ccc2nc(N)[nH]c2c1	LAI WT		MT-4	1 µM